“And” between values parts separate entries of the source, which are not always exact repeats. Equal entries are not always repeated. Some of the results follow. Records with an inconclusive call do not appear. The source made the active and inactive calls.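 The calls were made as follows: active = inhibition above a set limit at one or more doses, reproduced on every date tested; inconclusive = results disagree between test dates, or hit never tested in dose response; inactive = the rest.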

Amino acid sequences for entries named in this document (tags omitted). A change or cut given only in a name is not applied to a line headed by its entry.
UniProt P69720: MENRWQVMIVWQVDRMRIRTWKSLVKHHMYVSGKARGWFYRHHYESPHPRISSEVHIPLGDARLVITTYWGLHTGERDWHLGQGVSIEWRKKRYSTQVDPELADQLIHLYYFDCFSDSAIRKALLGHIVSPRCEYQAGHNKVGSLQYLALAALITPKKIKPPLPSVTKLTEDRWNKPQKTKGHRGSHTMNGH
UniProt P69721: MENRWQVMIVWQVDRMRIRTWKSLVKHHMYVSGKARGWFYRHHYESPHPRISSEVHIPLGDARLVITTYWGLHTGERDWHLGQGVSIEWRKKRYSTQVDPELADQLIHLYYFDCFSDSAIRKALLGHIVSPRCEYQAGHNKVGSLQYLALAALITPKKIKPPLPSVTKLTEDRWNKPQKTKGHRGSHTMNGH
UniProt P69722: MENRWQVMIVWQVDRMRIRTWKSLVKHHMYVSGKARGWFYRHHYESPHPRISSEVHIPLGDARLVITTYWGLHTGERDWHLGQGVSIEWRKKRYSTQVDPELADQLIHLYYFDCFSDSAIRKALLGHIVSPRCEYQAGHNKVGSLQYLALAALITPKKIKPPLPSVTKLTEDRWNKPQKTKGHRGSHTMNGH
UniProt P69723: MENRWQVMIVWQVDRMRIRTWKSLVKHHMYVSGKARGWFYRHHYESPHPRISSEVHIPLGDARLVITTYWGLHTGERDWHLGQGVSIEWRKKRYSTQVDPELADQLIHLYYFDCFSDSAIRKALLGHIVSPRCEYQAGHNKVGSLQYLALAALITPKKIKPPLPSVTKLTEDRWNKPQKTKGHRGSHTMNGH
UniProt Q9HC16: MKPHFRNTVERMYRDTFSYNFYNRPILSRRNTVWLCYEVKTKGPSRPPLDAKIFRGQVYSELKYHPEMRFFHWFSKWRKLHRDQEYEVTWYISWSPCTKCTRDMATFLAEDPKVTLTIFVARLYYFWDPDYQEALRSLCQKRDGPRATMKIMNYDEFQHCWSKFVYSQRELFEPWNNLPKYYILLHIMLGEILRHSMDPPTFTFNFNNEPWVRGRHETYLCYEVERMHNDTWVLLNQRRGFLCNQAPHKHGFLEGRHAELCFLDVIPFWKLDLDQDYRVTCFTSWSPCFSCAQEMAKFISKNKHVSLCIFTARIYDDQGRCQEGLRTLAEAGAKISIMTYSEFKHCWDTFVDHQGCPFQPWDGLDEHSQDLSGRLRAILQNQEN

The assay deals with Virion infectivity factor (Human immunodeficiency virus type 1 group M subtype B (isolate BH10)) + Virion infectivity factor (Human immunodeficiency virus type 1 group M subtype B (isolate BRU/LAI)) + Virion infectivity factor (Human immunodeficiency virus type 1 group M subtype B (isolate PCV12)) + Virion infectivity factor (Human immunodeficiency virus type 1 group M subtype B (isolate HXB2)) + DNA dC->dU-editing enzyme APOBEC-3G (Homo sapiens) (UniProt P69720+P69721+P69722+P69723+Q9HC16). Nature of the assay: inhibitors of Vif binding to APOBEC3G peptide, primary screen, biochemical, TR-FRET, GST-Vif 1-94, biotin-A3G peptide, dose response retest (AID 1117319).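 Also: Vif residues 1-94 fused to GST binding biotinylated APOBEC3G peptide 110-148; 0% = full assay without inhibitor and 100% = GST in place of GST-Vif.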 As to conditions: active compounds read high.
With `CC(=O)N1C2C3N(C(C)=O)C1C1N(C(C)=O)C(C(N1C(C)=O)N3C(C)=O)N2C(C)=O`, the inhibition is inactive: 4.03%.

On to `O=[N+]([O-])c1cccc2n[nH]nc12`, for which the inhibition is inactive: -3.09%.

For `CCN(/C(=N/P(=O)(N1CCOCC1)N1CCOCC1)N1CCOCC1)c1ccc(OC)cc1`, the inhibition is inactive: -0.96%.

Consider `CC1CCN(C(=O)Oc2c(Cl)cc(Cl)c3cccnc23)CC1`, for which the inhibition was inactive: -9.82%.

Consider `CN(C)C(=O)OCCc1n(C)cc[n+]1C`, for which the inhibition is inactive: -11.5%.

As to `CC(C)c1nc(Nc2ccccc2)n(P(=O)(N(C)C)N(C)C)n1`, the inhibition is inactive: -5.37%.

As for `O=P1(N(CCCl)CCCl)OCCCS1` (centres undefined), the inhibition was inactive: -1.15%.

Turning to `O=C(Nc1cc([As](=O)(O)O)ccc1O)c1ccccc1`, the inhibition is inactive: 14.5%.

On to `O=[N+]([O-])c1ncn(CCn2ncnc2[N+](=O)[O-])n1`, for which the inhibition is inactive: 0.22%.

Consider `CC(C)(C)C(=O)NC(Sc1ccncn1)C(Cl)(Cl)Cl` (centres undefined), for which the inhibition was inactive: -10.8%.

Regarding `O=C(O)CNc1ccc([As](=O)(O)O)cc1`, the inhibition is inactive: 4.93%.

Take `COC(=O)C1(C)COP(=O)(Nc2ccccc2)OC1` (centres undefined): the inhibition was inactive: -9.99%.

On to `O=[N+]([O-])c1cccc(NC2=NCC(CBr)S2)c1` (centres undefined), for which the inhibition was inactive: 67.5%.

Consider `CN(C)P(=O)(N(C)C)n1c(Nc2ccccc2)nnc1-c1ccccc1`, for which the inhibition was inactive: -0.18%.

In the case of `CCCC1OP(N)(=O)OCC1CC` (centres undefined), the inhibition is inactive: -7.84%.

On to `CC(=O)Nc1ccc([As](=O)(O)O)cc1`, for which the inhibition is inactive: -0.1%.

Take `O=C(O)c1ccccc1[As](=O)(O)O`: the inhibition is inactive: -6.03%.

With `Cc1ccc(NP(=O)(Oc2ccccc2F)Oc2ccccc2F)nc1`, the inhibition is inactive: 5.44%.

In the case of `CCOP(=O)(Nc1ccccc1)OCC`, the inhibition was inactive: 12.7% and inactive: 1.03%.

As to `CCN(N=Nc1nonc1N)c1nonc1N`, the inhibition was inactive: -5.26%.

With `Cc1ccc(N/C(=N/P(=O)(N2CCOCC2)N2CCOCC2)N2CCOCC2)cc1`, the inhibition is inactive: -5.21%.

`NC(=O)c1cc([N+](=O)[O-])cc([N+](=O)[O-])c1N`: the inhibition was inactive: -7.4%.

On to `CN1CCCC(OC(=O)C(c2ccccc2)c2ccccc2)C1` (centres undefined), for which the inhibition was inactive: -0.09%.

Consider `Clc1ccc(Cl)c(NC2=NCC(CBr)S2)c1` (centres undefined), for which the inhibition is inactive: -8.33%.

As to `Cc1ccc(OP(=O)(Nc2nccs2)Oc2ccc(C)cc2)cc1`, the inhibition was inactive: -11.5%.

On to `O=C(NC(Sc1ccncn1)C(Cl)(Cl)Cl)c1ccccc1` (centres undefined), for which the inhibition was inactive: -8.37%.

As for `Cc1c2non([O-])c-2c(C)[n+](=O)[n+]1[O-]`, the inhibition was inactive: 4.79%.

As to `Oc1ccccc1CNc1ccccn1`, the inhibition was inactive: -3.64%.

As to `CC(C)CC(=O)NC(Sc1ccc(Cl)cc1)C(Cl)(Cl)Cl` (centres undefined), the inhibition is inactive: -5.71%.

For the origin of these results see PubChem BioAssay AID1117319 (Southern Research Institute, 2015).
